B1: IgG: 2554_01_D11-YTE (antibody, V domains shown)
VH: QVQLVQSGAEVKKPGSSVKVSCKASGGTFSSYAISWVRQAPGQGLEWMGGIIPIFGTANYAQKFQGRVTITADESTSTAYMELRSLRSDDTAVYYCARDNLGYCSGGSCYSDYYYYYMDVWGQGTLVTVSS
VL: NFMLTQPRSVSESPGKTVTISCTRSSGSIGSDYVHWYQQRPGSSPTTVIYEDNQRPSGVPDRFSGSIDSSSNSASLTISGLKTEDEADYYCQSYDRSNHEVVFGGGTKLTVL
B2: IgG: 2554_01_D11-WT (antibody, V domains shown)
VH: QVQLVQSGAEVKKPGSSVKVSCKASGGTFSSYAISWVRQAPGQGLEWMGGIIPIFGTANYAQKFQGRVTITADESTSTAYMELRSLRSDDTAVYYCARDNLGYCSGGSCYSDYYYYYMDVWGQGTLVTVSS
VL: NFMLTQPRSVSESPGKTVTISCTRSSGSIGSDYVHWYQQRPGSSPTTVIYEDNQRPSGVPDRFSGSIDSSSNSASLTISGLKTEDEADYYCQSYDRSNHEVVFGGGTKLTVL
B3: IgG: 2555_01_A01-YTE (antibody, V domains shown)
VH: QVQLVQSGAEVKKPGSSVKVSCKASGGTFSSYAISWVRQAPGQGLEWMGGIIPIFGTANYAQKFQGRVTITADESTSTAYMELRSLRSDDTAVYYCARDNLGYCSGGSCYSDYYYYYMDVWGQGTLVTVSS
VL: SYELTQPPSVSVAPGRTATITCEGDNIGQQIVHWYQQKPGQAPVAVISSDSDRPSGIPERFSGSNSGNTATLTISRVEAGDEADYYCQVWDSGSDHVVFGGGTKVTVL
notes: also called IgG1 A01; source: CHO cells, transiently expressed, purified; copies: 2 + 2
B4: IgG: TPL0039_05_A03-YTE (antibody, V domains shown)
VH: QVQLVESGGGLAKPGRSLRLSCAVSGFTFSSYGMHWVRQAPGKGLEWVAVISYDGSNKYYADSVKGRFTISRDNSKNTLYLQMNSLRAEDTAVYYCASTLQQLDAFDIWGQGTMVTVSS
VL: NFMLTQPHSVSESPGKTITISCTRSSGSIASNYVQWYQQRPGSVPTPVIYEDDRRPSGVPDRFSGSIDSSSNSASLTISGLKTEDEADYYCQSYDSSSVVFGGGTKITVL
notes: copies: 2 + 2

Key:
[1] = biological target: biotinylated α-cobratoxin (Naja kaouthia, UniProt P01391, biotin (EZ-Link NHS-PEG4-Biotin, 1:1.25 toxin:reagent molar ratio))
biotinylated myotoxin II = biotinylated myotoxin II (Bothrops asper, UniProt P24605, biotin (EZ-Link NHS-PEG4-Biotin, 1:1.25 toxin:reagent molar ratio)); assay: BLI; details: both partners purified

Binder	binding result [1]	Kd (biotinylated myotoxin II) [pM]	koff (biotinylated myotoxin II) [s⁻¹]
B1	binds	–	–
B2	binds	–	–
B3	binds	–	–
B4	–	< 1	< 1e-07

Reference: paper PMC11385703 (Structure(London, England:1993), 2024)
